This note sets out measurements from PMC9017343.

In general, Kd refers to the concentration at which binding is half-saturated. A low value points to higher affinity. One may read the koff as a measure of how fast the partners let go of each other.

The target in this assay is SARS-CoV S trimer (ectodomain) (SARS-CoV) (UniProt P59594). Kind of assay: SPR. For orientation: Surface plasmon resonance follows binding to a sensor surface in real time, without labels.

With S309, the Kd was 1.95 pM and the koff worked out at 2.63e-07 s⁻¹.
